Anti-infective test results gathered from many reports (values: NIAID ChemDB through PubChem).

Common to all: growth or infection tests; organism: HIV-1; endpoint: inhibition

Blank or dashed fields: not listed here. Inhibition is in % at the dose shown (toxicity tests: loss of growth or viability). Neighbouring rows are from separate reports.

{"SMILES": "NC1=NS(=O)(=O)N(Cc2ccccc2)c2c1ncn2[C@H]1CS[C@@H](CO)O1", "strain": "RF", "cells": "MT-4", "tested at": "100 µg/mL", "result": "0%"}
{"SMILES": "O=C1Nc2ccc(Cl)cc2C(C#Cc2cccnc2)(C(F)(F)F)O1", "tested at": "0.00367 µM", "result": "90%"}
{"SMILES": "O=C(Cc1ccc(Cl)cc1)Nc1nc(-c2ccccc2)cs1", "strain": "NL4-3", "cells": "TZM-bl", "tested at": "50 µg/mL", "result": "78.46%"}
{"SMILES": "Cc1nnc(N)nc1C/C=C/C(Sc1ccc(Cl)cc1)c1cc(Cl)cc(Cl)c1", "strain": "RF", "cells": "MT-2", "tested at": "6.33 µM", "result": "36.33%"}
{"SMILES": "CC(C)CN(C[C@@H](O)[C@H](Cc1ccccc1)NC(=O)[C@@H](NC(=O)CNC(C)(C)c1ccccc1)C(C)(C)C)S(=O)(=O)c1ccc2ncsc2c1", "strain": "RF", "cells": "MT-2", "tested at": "90 µM", "result": "<1%"}
{"SMILES": "N#Cc1cc(Cl)cc(Oc2c(Cl)ccc3c2cnn3Cc2[nH]nc3nc(N)ccc23)c1", "cells": "MT-4", "tested at": "0.043 µM", "conditions": "50% human serum", "result": ">95%"}
{"SMILES": "O=c1ccn(-c2cn(C(O)CP(=O)(O)O)nn2)c(=O)[nH]1", "strain": "IIIB", "cells": "CEM", "tested at": "100 µM", "result": "0%"}
{"SMILES": "C[C@H](Cn1cnc2c(N)ncnc21)OCP(=O)(O)OP(=O)(O)OCCOCn1cnc2c(=O)[nH]c(N)nc21", "strain": "BaL", "cells": "Macrophage", "tested at": "1 µM", "result": "0%"}
{"SMILES": "CC(C)CN(C[C@@H](O)[C@H](Cc1ccccc1)NC(=O)[C@@H](NC(=O)[C@@H](C)NC(C)(C)c1ccccc1)C(C)(C)C)S(=O)(=O)c1ccc2ncccc2c1", "strain": "RF", "cells": "MT-2", "tested at": "90 µM", "result": "<1%"}
{"SMILES": "NC1=NS(=O)(=O)N(Cc2ccccc2)c2ncn([C@@H]3CS[C@@H](CO)O3)c21", "strain": "RF", "cells": "MT-4", "tested at": "100 µg/mL", "result": "0%"}
{"SMILES": "Cc1cn([C@@H]2C[C@H](CO)N(N=O)C2)c(=O)[nH]c1=O", "tested at": "100 µM", "result": "0%"}
{"SMILES": "CNCCNS(=O)(=O)c1cccc2cnccc12", "strain": "LAI", "tested at": "16.7 µM", "result": "24.9%"}
{"SMILES": "CC(C)CN(C[C@@H](O)[C@H](Cc1ccccc1)NC(=O)[C@@H](NC(=O)CNC(C)(C)c1cccc(F)c1)C(C)C)S(=O)(=O)c1ccc2ncsc2c1", "strain": "RF", "cells": "MT-2", "tested at": "90 µM", "result": "<1%"}
{"SMILES": "CCOCn1c2c(c(=O)[nH]c1=O)CCCc1ccccc1-2", "strain": "IIIB", "cells": "C8166", "tested at": "5 µM", "result": "36%"}
{"SMILES": "C[n+]1cn(-c2cn(C(O)P(=O)(O)O)nn2)c(=O)[nH]c1=O", "strain": "IIIB", "cells": "CEM", "tested at": "100 µM", "result": "0%"}
{"SMILES": "Cc1cn([C@H]2CN[C@@H](CO)C2)c(=O)[nH]c1=O", "tested at": "100 µM", "result": "0%"}
{"SMILES": "CCOC(=O)/C=C/c1ccc(OC(=O)CCC(=O)Oc2c(C)c(C)c3c(c2C)CC[C@@](C)(CCC[C@H](C)CCC[C@H](C)CCCC(C)C)O3)cc1", "strain": "BaL", "cells": "Macrophage + Monocytes/macrophages", "tested at": "5 µM", "result": "40%"}
{"SMILES": "CC1(c2nc3ccccc3[nH]2)CCC(C#N)C(C)(C)O1", "strain": "RF", "cells": "CEM + CEM-SS", "tested at": "0.063 µM", "result": "5.15%"}
{"SMILES": "CN(C[C@@H](CCN1CCC2(CC1)CS(=O)c1ccccc12)c1ccc(Cl)c(Cl)c1)S(=O)(=O)c1ccc(-c2ccon2)s1", "strain": "YU2", "cells": "PBMC", "tested at": "12.5 µM", "result": "<95%"}
{"SMILES": "CCOP(=O)(Cn1cc(-n2ccc(=O)[nH]c2=O)nn1)OCC", "strain": "IIIB", "cells": "CEM", "tested at": "100 µM", "result": "0%"}
{"SMILES": "O=C(CN1c2c(-c3ccccc3)n[nH]c2-c2ccccc2S1(=O)=O)N/N=C/c1ccccc1[N+](=O)[O-]", "cells": "PBL", "tested at": "47.3 µM", "result": "90%"}
{"SMILES": "CC(C)CN(C[C@@H](O)[C@H](Cc1ccccc1)NC(=O)[C@@H](NC(=O)CNC(C)(C)c1cccc(F)c1)C(C)C)S(=O)(=O)c1ccc2ncccc2c1", "strain": "RF", "cells": "MT-2", "tested at": "90 µM", "result": "<1%"}
{"SMILES": "Fc1cccc(F)c1C1SCc2nc3cc4ccccc4cc3n21", "strain": "RF", "cells": "CEM + CEM-SS", "tested at": "0.63 µM", "result": "4.49%"}
{"SMILES": "CC1=CN([C@H]2CS[C@@H](CO)O2)S(=O)(=O)NC1=O", "strain": "RF", "cells": "MT-4", "tested at": "100 µg/mL", "result": "0%"}
{"SMILES": "N#Cc1cc(Cl)cc(Oc2c(Cl)ccc3c2ncn3Cc2[nH]nc3ncccc23)c1", "cells": "MT-4", "tested at": "0.023 µM", "result": ">95%"}
{"SMILES": "CC(C)CN(C[C@@H](O)[C@H](Cc1ccccc1)NC(=O)[C@@H](NC(=O)CNC(C)(C)c1cccc(F)c1)C(C)C)S(=O)(=O)c1ccc(N)cc1", "strain": "RF", "cells": "MT-2", "tested at": "90 µM", "result": "<1%"}
{"SMILES": "O=C(/C=C(\\O)c1ncn[nH]1)c1ccc(Cc2ccc(F)cc2)o1", "strain": "IIIB", "cells": "MT-4", "tested at": "0.74 µM", "result": "90%"}
{"SMILES": "O=S(=O)(c1cccc2c(Cl)cccc12)N1CCCNCC1", "strain": "LAI", "tested at": "16.7 µM", "result": "8.25%"}
{"SMILES": "CC(C)CN(C[C@@H](O)[C@H](Cc1ccccc1)NC(=O)[C@@H](NC(=O)CNC(C)(C)c1cccc(F)c1)C(C)(C)C)S(=O)(=O)c1ccc2nc(N)sc2c1", "strain": "RF", "cells": "MT-2", "tested at": "90 µM", "result": "<1%"}
{"SMILES": "CCOP(=O)(CC(O)n1cc(C2N=C3C(N)=NC=NC3N2C)nn1)OCC", "strain": "IIIB", "tested at": "100 µM", "result": "0%"}
{"SMILES": "Cc1ccccc1CC(=O)Nc1nc(-c2ccccc2)cs1", "strain": "NL4-3", "cells": "TZM-bl", "tested at": "50 µg/mL", "result": "80.65%"}
{"SMILES": "O=C1C=CN([C@@H]2CS[C@@H](CO)O2)S(=O)(=O)N1", "strain": "RF", "cells": "MT-4", "tested at": "100 µg/mL", "result": "0%"}
{"SMILES": "O=c1ccn(-c2cn(CCCP(=O)(O)O)nn2)c(=O)[nH]1", "strain": "IIIB", "cells": "CEM", "tested at": "100 µM", "result": "0%"}
{"SMILES": "O=C(Cc1ccc(F)cc1)Nc1nc(-c2ccccc2)cs1", "strain": "NL4-3", "cells": "TZM-bl", "tested at": "50 µg/mL", "result": "54.82%"}
{"SMILES": "CN1[C@H](CC(=O)O)C[C@@H](O)[C@@H]1CO", "cells": "293T", "tested at": "10 µM", "conditions": "pseudotyped", "result": "22.4%"}
{"SMILES": "O=C1CC(C#CC2CC2)(C(F)(F)F)c2cc(Cl)ccc2N1", "mutations": "RT-K103N", "tested at": "0.177 µM", "result": "90%"}
{"SMILES": "O=C(Cc1ccccc1)Nc1nc(-c2ccccc2)cs1", "strain": "NL4-3", "cells": "TZM-bl", "tested at": "50 µg/mL", "result": "41.32%"}
{"SMILES": "Clc1cc2nc(C3CCCO3)[nH]c2cc1Cl", "strain": "RF", "cells": "CEM + CEM-SS", "tested at": "0.063 µM", "result": "2.5%"}
{"SMILES": "N#Cc1cc(Cl)cc(Oc2cc(OCc3[nH]nc4ncccc34)ccc2Cl)c1", "cells": "MT-4", "tested at": "0.01 µM", "result": ">95%"}
{"SMILES": "c1ccc(C2SCc3nc4cc5ccccc5cc4n32)cc1", "strain": "RF", "cells": "CEM + CEM-SS", "tested at": "200 µM", "result": "15.01%"}
{"SMILES": "NC1=NS(=O)(=O)N(Cc2ccccc2)c2ncn([C@H]3CS[C@@H](CO)O3)c21", "strain": "RF", "cells": "MT-4", "tested at": "100 µg/mL", "result": "0%"}
{"SMILES": "C=C(C=O)[C@@H]1CC[C@@]2(C)C1C1CCC3[C@@]4(C)CC[C@H](O)C(C)(C)C4CC[C@@]3(C)[C@]1(C)C[C@@H]2O", "cells": "CEM.NKR-CCR5", "tested at": "0.3 µM", "result": "66%"}
{"SMILES": "O=S(=O)(NCCN/C=C/c1ccccc1)c1cccc2cnccc12", "strain": "LAI", "tested at": "16.7 µM", "result": "6%"}
{"SMILES": "C[n+]1cn(-c2cn(CCP(=O)(O)O)nn2)c(=O)[nH]c1=O", "strain": "IIIB", "cells": "CEM", "tested at": "100 µM", "result": "0%"}
{"SMILES": "O=S(=O)(c1cccc2cnccc12)N1CCNCC1", "strain": "LAI", "tested at": "16.7 µM", "result": "85.4%"}
{"SMILES": "CCOP(=O)(CC(O)n1cc(-n2ccc(=O)[nH]c2=O)nn1)OCC", "strain": "IIIB", "tested at": "100 µM", "result": "0%"}
{"SMILES": "Cc1ccc(CC(=O)Nc2nc(-c3ccccc3)cs2)cc1", "strain": "NL4-3", "cells": "TZM-bl", "tested at": "50 µg/mL", "result": "84.45%"}
{"SMILES": "CC(C)CN(C[C@@H](O)[C@H](Cc1ccccc1)NC(=O)[C@@H](NC(=O)CNC(C)(C)c1ccccc1)C(C)(C)C)S(=O)(=O)c1ccc(N)cc1", "strain": "RF", "cells": "MT-2", "tested at": "90 µM", "result": "<1%"}
{"SMILES": "CC(=O)NC1C=CN(c2cn(C(O)CCCP(=O)(O)O)nn2)C(=O)N1", "strain": "IIIB", "cells": "CEM", "tested at": "100 µM", "result": "0%"}
{"SMILES": "NCCNS(=O)(=O)c1ccc(Cl)c2ccncc12", "strain": "LAI", "tested at": "16.7 µM", "result": "3%"}
{"SMILES": "CCc1nn(CCN)c(CC)c1Oc1cc(Cl)cc(C#N)c1", "strain": "RF", "cells": "SupT1", "tested at": "0.024 µM", "result": "90%"}
{"SMILES": "CCCCC[C@H](O)/C=C/C1C(=O)C[C@H](O)[C@@H]1C/C=C\\CCCC(=O)O", "cells": "U-937", "tested at": "5 µM", "result": "45%"}
{"SMILES": "CCC(C)[C@H](NC(=O)CNC(C)(C)c1cccc(F)c1)C(=O)N[C@@H](Cc1ccccc1)[C@H](O)CN(CC(C)C)S(=O)(=O)c1ccc2ncccc2c1", "strain": "RF", "cells": "MT-2", "tested at": "90 µM", "result": "<1%"}

The last 3 rows once more:

SMILES,strain,mutations,cells,tested at,conditions,result
CCc1nn(CCN)c(CC)c1Oc1cc(Cl)cc(C#N)c1,RF,-,SupT1,0.024 µM,-,90%
CCCCC[C@H](O)/C=C/C1C(=O)C[C@H](O)[C@@H]1C/C=C\CCCC(=O)O,-,-,U-937,5 µM,-,45%
CCC(C)[C@H](NC(=O)CNC(C)(C)c1cccc(F)c1)C(=O)N[C@@H](Cc1ccccc1)[C@H](O)CN(CC(C)C)S(=O)(=O)c1ccc2ncccc2c1,RF,-,MT-2,90 µM,-,<1%